Measured values from several laboratories, pooled; numbers as filed in NIAID ChemDB.

Shared fields: growth or infection tests; agent: HIV-1; cell line: MT-4; measure: EC50

ECn: concentration that inhibits the pathogen or its effect by n%. Blank or dashed fields: not listed here. Rows are shuffled and stem from different studies.

smiles,strain,mutations,method,value
CCOCn1c(C(O)C2=CCCCC2)c(CC)c(=O)[nH]c1=O,HTLV-IIIB WT,-,cytopathic effect / MTT,3.8 µM
O=C1O[C@@H]2O[C@@H]3COC(=O)c4cc(O)c(O)c(O)c4-c4c(cc(O)c(O)c4O)C(=O)O[C@H]3[C@H](OC(=O)c3cc(O)c(O)c(O)c3)[C@H]2OC(=O)c2cc(O)c(O)c(O)c2Oc2cc(cc(O)c2O)C(=O)O[C@@H]2O[C@@H]3COC(=O)c4cc(O)c(O)c(O)c4-c4c(cc(O)c(O)c4O)C(=O)O[C@H]3[C@H](OC(=O)c3cc(O)c(O)c(O)c3)[C@H]2OC(=O)c2cc(O)c(O)c(O)c2Oc2c(O)cc1cc2O,IIIB,-,cytopathic effect / MTT,>50 µg/mL
CCc1c(Cc2cc(C)cc(C)c2)n(COCC#Cc2ccc(NC(=O)C(F)(F)F)cc2)c(=O)[nH]c1=O,IIIB,WT,MTT,0.007 µM
CSC(=Nc1ccc(Br)cc1)Nn1c(C)nc2ccccc2c1=O,IIIB,-,MTT,2.66 µg/mL
CCc1c(Cc2cc(C)cc(C)c2)n(COCC#Cc2ccc([N+](=O)[O-])cc2)c(=O)[nH]c1=O,IIIB,EFV-resistant (K103R V179D P225H),MTT,>7 µM
O=C1O[C@H]2[C@@H](OC(=O)c3cc(O)c(O)c(O)c3)[C@H](OC(=O)c3cc(O)c(O)c4c3C3C1=CC(=O)C(O)(O4)C3(O)O)[C@@H]1OC(=O)c3cc(O)c(O)c(O)c3-c3c(cc(O)c(O)c3O)C(O)OC[C@H]2O1,IIIB,-,cytopathic effect / MTT,>25 µg/mL
CCc1c(Cc2ccccc2C)n(COCC#Cc2ccccc2)c(=O)[nH]c1=O,IIIB,K103N + Y181C,MTT,>26 µM
C=CCN=C(Nn1c(C)nc2ccccc2c1=O)SC,IIIB,-,MTT,5.77 µg/mL
CC=CC(=O)c1c(CC)c(=O)[nH]c(=O)n1COCC,HTLV-IIIB WT,-,cytopathic effect / MTT,>100 µM
O=C(OC[C@H]1O[C@@H](O)[C@@H]2OC(=O)c3cc(O)c(O)c(O)c3-c3c(cc(O)c(O)c3O)C(=O)O[C@H]2[C@@H]1OC(=O)c1cc(O)c(O)c(O)c1Oc1cc2c(c(O)c1O)-c1c(cc(O)c(O)c1O)C(=O)O[C@@H]1[C@@H](OC2=O)[C@H](OC(=O)c2cc(O)c(O)c(O)c2)O[C@@H]2COC(=O)c3cc(O)c(O)c(O)c3-c3c(cc(O)c(O)c3O)C(=O)O[C@@H]12)c1cc(O)c(OC(=O)c2cc(O)c(O)c(O)c2)c(O)c1,IIIB,-,cytopathic effect / MTT,2.4 µg/mL
CSC(=Nc1ccc([N+](=O)[O-])cc1)Nn1c(C)nc2ccccc2c1=O,IIIB,-,MTT,1.56 µg/mL
CCc1c(Cc2ccccc2C)n(COCC#Cc2ccc(NC(=O)C(F)(F)F)cc2)c(=O)[nH]c1=O,IIIB,Y181C,MTT,>45 µM
O=C(O[C@@H]1O[C@@H]2COC(=O)c3cc(O)c(O)c(O)c3-c3c(cc(O)c(O)c3O)C(=O)O[C@H]([C@H]1O)[C@@H]2O)c1cc(O)c(O)c(O)c1,IIIB,-,cytopathic effect / MTT,>25 µg/mL
CCc1ccccc1N=C(Nn1c(C)nc2ccccc2c1=O)SC,IIIB,-,MTT,34.45 µg/mL
O=C1O[C@H]2[C@@H]3OC(=O)c4cc(O)c(O)c(O)c4-c4c(cc(Oc5c(C(=O)O[C@H]6[C@H](OC(=O)c7cc(O)c(O)c(O)c7)O[C@H](COC(=O)c7cc(O)c(O)c(O)c7)[C@@H](OC(=O)c7cc(O)c(O)c(O)c7)[C@@H]6OC(=O)c6cc(O)c(O)c(O)c6)cc(O)c(O)c5O)c(O)c4O)C(=O)OC[C@H]2O[C@@H](OC(=O)c2cc(O)c(O)c(O)c2)[C@@H]3OC(=O)c2cc(O)c(O)c3c2[C@H]2C(=O)[C@@](O)(O3)C(=O)C=C12,IIIB,-,cytopathic effect / MTT,>50 µg/mL
CSC(=Nc1ccc(F)cc1)Nn1c(C)nc2ccccc2c1=O,IIIB,-,MTT,2.84 µg/mL
CCOCn1c(Cc2ccccc2)c(C(C)C)c(=O)[nH]c1=O,IIIB WT,-,cytopathic effect / MTT,0.031 µM
O=C1OC2OC3COC(=O)c4cc(O)c(O)c(O)c4-c4c(cc(O)c(O)c4O)C(=O)OC3C(OC(=O)c3cc(O)c(O)c(O)c3)C2OC(=O)c2cc(O)c(O)c(O)c2Oc2cc(cc(O)c2O)C(=O)OC2OC3COC(=O)c4cc(O)c(O)c(O)c4-c4c(cc(O)c(O)c4O)C(=O)OC3C(OC(=O)c3cc(O)c(O)c(O)c3)C2OC(=O)c2cc(O)c(O)c(O)c2Oc2cc1cc(O)c2O,IIIB,-,cytopathic effect / MTT,25 µg/mL

A second listing of 2 rows from above:

smiles | strain | mutations | method | value
O=C(O[C@@H]1O[C@@H]2COC(=O)c3cc(O)c(O)c(O)c3-c3c(cc(O)c(O)c3O)C(=O)O[C@H]([C@H]1O)[C@@H]2O)c1cc(O)c(O)c(O)c1 | IIIB | - | cytopathic effect / MTT | >25 µg/mL
CSC(=Nc1ccc([N+](=O)[O-])cc1)Nn1c(C)nc2ccccc2c1=O | IIIB | - | MTT | 1.56 µg/mL